Construct, isoform or probe ends are uncertain for at least one entry. At least one verdict rests on a figure or table, not on a statement of the authors. Tags and fusion partners may be left off the protein sequences shown.

The target of the series is T1, CRP-MTB (cAMP receptor protein, wild type) (Mycobacterium tuberculosis) (UniProt P9WMH3).
T1 sequence (looked up, limits assumed): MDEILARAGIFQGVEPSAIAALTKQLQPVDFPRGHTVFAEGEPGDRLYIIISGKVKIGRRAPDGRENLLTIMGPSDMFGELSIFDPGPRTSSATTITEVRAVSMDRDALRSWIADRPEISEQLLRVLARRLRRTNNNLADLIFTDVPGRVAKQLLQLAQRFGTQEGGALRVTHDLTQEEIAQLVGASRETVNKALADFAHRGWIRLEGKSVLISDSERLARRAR
In words: EMSA. Particulars: recombinant protein.
Regarding “CGTAGTGTGAACAAGCTCACATGCAA (double strand) [SerC promoter 26-bp (EMSA)]”, the binding result is listed as “binds”.

Consider “GTAGTGTGAACAAGCTCACATGCA (double strand) [SerC promoter 24-bp (EMSA)]”, for which the binding result was “binds”.

On to “TAGTGTGAACAAGCTCACATGC (double strand) [SerC promoter 22-bp (EMSA)]”, for which the binding result is listed as “binds”.
